Pooled drug test results. Numbers come from NIAID ChemDB, via PubChem.

Shared fields: whole-cell or culture tests; species: Varicella zoster virus; read by: cytopathic effect; measure: EC50

Lines come from different laboratories, so protocols vary.

{"structure": "O=c1[nH]cnc2c1ncn2CCOCP(=O)(O)O", "strain or isolate": "4 strains", "cell line": "HEL", "result": ">400 µg/mL"}
{"structure": "Nc1nc(Cl)nc2c1ncn2/C=C1\\CC1CO", "cell line": "HFF", "result": "179 µM"}
{"structure": "Nc1ncnc2ncn(COCCCl)c12", "strain or isolate": "YS (TK+)", "cell line": "VERO", "result": ">128 µg/mL"}
{"structure": "Nc1nc(OCCOCP(=O)(O)O)cc(OCCOCP(=O)(O)O)n1", "strain or isolate": "YS", "cell line": "HEL", "result": "50 µg/mL"}
{"structure": "Nc1ncnc2c1ncn2CCOCP(=O)(O)O", "strain or isolate": "Oka penciclovir-resistant/B", "cell line": "HEL", "result": "112.7 µM"}
{"structure": "Nc1ncnc2c1ncn2C[C@@H](CO)OCP(=O)(O)O", "strain or isolate": "OKA", "result": "0.07 µM"}
{"structure": "Nc1ncnc2c1ncn2[C@@H]1C=C(CO)[C@@H](O)[C@H]1O", "strain or isolate": "YS", "cell line": "HEL", "result": "2.4 µg/mL"}
{"structure": "Nc1nc2c(ncn2CCOCP(=O)(O)O)c(=O)[nH]1", "strain or isolate": "4 strains", "cell line": "HEL", "result": "0.05 µg/mL"}
{"structure": "Nc1nc2ncn(COCCCl)c2c(=O)[nH]1", "strain or isolate": "YS/R (TK-)", "cell line": "VERO", "result": ">128 µg/mL"}
{"structure": "Nc1cc(OC[C@H](CO)OCP(=O)(O)O)nc(N)n1", "strain or isolate": "OKA", "result": "0.51 µM"}
{"structure": "Nc1ncnc2c1ncn2CCOCP(=O)(O)O", "strain or isolate": "4 strains", "cell line": "HEL", "result": "10 µg/mL"}
{"structure": "C[C@H](Cn1cnc2c(N)ncnc21)OCP(=O)(O)O", "strain or isolate": "OKA", "result": "≥350 µM"}
{"structure": "Nc1nc2c(ncn2CC(CO)OCP(=O)(O)O)c(=O)[nH]1", "strain or isolate": "4 strains", "cell line": "HEL", "result": "0.07 µg/mL"}
{"structure": "C[C@H](COc1cc(N)nc(N)n1)OCP(=O)(O)O", "strain or isolate": "YS/R (TK-)", "cell line": "HEL", "result": "5.7 µg/mL"}
{"structure": "O=c1ccn(CC(CO)OCP(=O)(O)O)c(=O)[nH]1", "strain or isolate": "4 strains", "cell line": "HEL", "result": "300 µg/mL"}
{"structure": "COC(=O)C(C)NOP(OC[C@H]1C/C1=C/n1cnc2c(N)[nH]c(=O)nc21)Oc1ccccc1", "cell line": "HFF", "result": ">205 µM"}

ECn is the concentration giving n% inhibition of infection, replication or growth.